Compound potency records, mixed from different reports. Data source: NIAID ChemDB in PubChem.

Shared fields: growth or infection tests; agent: HIV-1; method: syncytia; endpoint: EC50

ECn: concentration that inhibits the pathogen or its effect by n%. Lines come from different laboratories, so protocols vary. Blank or dashed fields: not listed here.

structure	cell line	mutations	strain	result
O=c1[nH]cnc2c1ncn2[C@H]1CC[C@@H](CO)O1	CEM		IIIB	3.5 µg/mL
CC(C)(C)[Si](C)(C)OC[C@H]1O[C@@H](n2cnc3c(=O)n(CC(=O)O)cnc32)[C@H](O[Si](C)(C)C(C)(C)C)[C@@H]1O	CEM		IIIB	76 µM
Cc1ccc(S(=O)(=O)Nc2ccccc2OCC(=O)Nc2ccc(S(N)(=O)=O)cc2C)cc1	C8166		IIIB	0.552 µM
CC(C)=CCOc1cc(NC(=S)c2ccsc2C)ccc1Cl	CEM	RT-E138K	IIIB	0.01 ± 0.007 µM
O=[N+]([O-])c1ccc2c(ccn2-c2ccccc2[N+](=O)[O-])c1	C8166		IIIB	11.24 µg/mL
CC(C)=CCOc1cc(NC(=S)c2ccoc2C)ccc1Cl	CEM	RT-V106A	IIIB	0.023 ± 0.004 µM
Cc1cc(O)c2c(c1)C(=O)c1cc(O[C@@H]3O[C@H](CO[C@@H]4O[C@@H](C)[C@H](O)[C@@H](O)[C@H]4O)[C@@H](O)[C@H](O)[C@H]3O)cc(O)c1C2=O	C8166		IIIB	2.9 µg/mL
Cc1cn([C@H]2C[C@H](N=[N+]=[N-])[C@@H](CO)O2)c(=O)[nH]c1=O	CEM			0.1 µM
Cc1cn([C@H]2C[C@H](N(C)O)[C@@H](CO)O2)c(=O)[nH]c1=O	CEM		IIIB	3.7 µg/mL
O[C@H]1[C@H](O)[C@H](O)CN2CC[C@H](O)[C@H]12	JM		GB8	~1000 µM
CC(C)C[C@H](NC(=O)[C@H](CC(=O)OS(=O)(=O)O)NC(=O)[C@@H](N)Cc1ccc(OS(=O)(=O)O)cc1)C(=O)N[C@@H](CC(=O)OS(=O)(=O)O)C(=O)N[C@@H](Cc1ccc(OS(=O)(=O)O)cc1)C(=O)N[C@@H](Cc1ccc(OS(=O)(=O)O)cc1)C(=O)O.CCN(CC)CC.CCN(CC)CC.CCN(CC)CC.CCN(CC)CC.CCN(CC)CC	C8166		GUN1	<200 µg/mL
C#CCN1C(=O)N(Cc2ccccc2)S(=O)(=O)c2cscc21	MT-4		IIIB	0.2 µM
Cc1ccc(S(=O)(=O)Nc2cc(Cl)ccc2OCC(=O)Nc2ccc(S(N)(=O)=O)cc2C)cc1	C8166		IIIB	1.231 µM
CCN1C(=O)N(Cc2cccc(Cl)c2)S(=O)(=O)c2cscc21	MT-4		NDK	4.8 µM
CC12CCC3C(CCC4CCCCC43C)C1CC(F)C2=O	PBL		IIIB	4.8 µM
COc1ccc(S(=O)(=O)Nc2cc(Cl)ccc2OCC(=O)Nc2ccc(S(N)(=O)=O)cc2C)cc1	C8166		IIIB	2.454 µM
Cc1cn([C@H]2C[C@H](F)[C@@H](CO)O2)c(=S)[nH]c1=O	MT-2			0.5 µM
Nc1ccn([C@H]2CC[C@@H](CO)O2)c(=O)n1	JM		GB8	0.1 µM
Cc1cc(S(N)(=O)=O)ccc1NC(=O)COc1ccccc1NS(=O)(=O)c1ccccc1	C8166		IIIB	14.5 µM
CCOC(=O)c1cc(O)c(O)c(O)c1	CEM		IIIB	1.5 µg/mL
COC(=O)CCn1c(=O)c(C)cn([C@@H]2O[C@H](CO[Si](C)(C)C(C)(C)C)[C@@H](O)[C@H]2O[Si](C)(C)C(C)(C)C)c1=O	CEM		IIIB	>10 µM
CCCCCCCCCCOC(CNC(=O)CCCCCCCCC)COP(=O)([O-])OCC[N+](C)(C)C	CEM		G-691 POST-AZT	0.15 µM
Cc1cc(S(N)(=O)=O)ccc1NC(=O)COc1ccc(Cl)cc1NS(=O)(=O)c1ccc(Cl)cc1	C8166		IIIB	1.607 µM
O=[N+]([O-])c1ccccc1-n1ccc2ccccc21	C8166		IIIB	7.88 µg/mL
Cc1cn([C@H]2C[C@H](N=[N+]=[N-])[C@@H](COC(=O)c3cccnc3)O2)c(=O)[nH]c1=O	CEM		IIIB	0.4 µg/mL
O=C1N(Cc2ccccc2)c2cscc2S(=O)(=O)N1Cc1ccccc1	CEM	RT-V106A		≥10.4 µM
OC[C@@H]1[C@@H](O)[C@H](O)[C@@H]2[C@@H](O)CCN21	JM		GB8	>1000 µM
CC[C@@]1(O)C(=O)OCc2c1cc1n(c2=O)Cc2c-1nc1ccccc1c2CO	C8166		IIIB	0.0008 µg/mL
Cc1cc(S(N)(=O)=O)ccc1NC(=O)COc1ccc(Cl)cc1NS(=O)(=O)c1ccc([N+](=O)[O-])cc1	C8166		IIIB	3.667 µM
CCNc1cccnc1N1CCN(C(=O)c2cc3cc(OC)ccc3[nH]2)CC1	H9		MN	0.25 µM
Cc1cn([C@H]2C[C@H](F)[C@@H](COP(=O)(O)O)O2)c(=S)[nH]c1=O	PBMC			0.5 µM
CCOCn1c(Cc2ccccc2)c(C(C)C)c(=O)[nH]c1=O	CEM		IIIB	0.002 µg/mL
CC(C)(C)[Si](C)(C)OC[C@@H]1CC[C@H](n2cnc3c(=O)n(CC(=O)OCc4ccccc4)cnc32)O1	CEM		IIIB	>10 µM
CC(C)NCC(O)c1ccc(O)c(O)c1	CEM		IIIB	20 µg/mL
CCCCCCCCCCCCOC(CNC(=O)CCCCCCCCC)COP(=O)([O-])OCC[N+](C)(C)C	CEM		IIIB	0.1 µM
NS(=O)(=O)c1ccc(NC(=O)COc2ccc(Cl)cc2NS(=O)(=O)c2ccc([N+](=O)[O-])cc2)cc1	C8166		IIIB	3.124 µM
CCCC(C)(C)[Si](C)(C)OC[C@H]1O[C@@H](n2cc(C)c(=O)n(CC(=O)O)c2=O)[C@H](O[Si](C)(C)C(C)(C)CCC)[C@@H]1O	CEM		IIIB	>10 µM
Nc1ncc2ncn([C@H]3CC[C@@H](CO)O3)c2n1	JM		IIIB	8 µM
Cc1occc1C(=S)Nc1ccc(Cl)c(/C=N/OC(C)(C)C)c1	CEM	RT-V106A	IIIB	0.16 ± 0.06 µM
O=C(Nc1cc(S(=O)(=O)O)cc2cc(S(=O)(=O)O)c(N=Nc3ccc(N=Nc4c(S(=O)(=O)O)cc5cc(S(=O)(=O)O)cc(NC(=O)c6cccc(Cl)c6Cl)c5c4O)cc3)c(O)c12)c1ccc(Cl)cc1Cl	SupT1 + Sup-T1		IIIB	2.8 µg/mL
CC(=O)OC(C)(C)/C=C/C(=O)[C@](C)(O)[C@H]1[C@H](O)C[C@@]2(C)C3CC=C4C(C[C@H](O)C(=O)C4(C)C)[C@]3(C)C(=O)C[C@]12C			C8166	4.2 µg/mL
CC(C)=CCOc1cc(NC(=S)c2ccoc2C)ccc1Cl	CEM		IIIB	0.001 µg/mL
CC(C)[C@H](NC(=O)[C@H](Cc1cccc2ccccc12)CS(=O)(=O)C(C)(C)C)C(=O)N[C@@H](Cc1ccccc1)[C@@H](O)[C@H](O)[C@H](Cc1ccccc1)NC(=O)[C@@H](NC(=O)[C@H](Cc1cccc2ccccc12)CS(=O)(=O)C(C)(C)C)C(C)C	H9		MN	0.004 µM
CCCCCCCCCCCC(=O)NCC(COP(=O)([O-])OCC[N+](C)(C)C)OCCCCCC	CEM		IIIB	0.21 µM
CC(=O)c1ccc(C)cc1NC(C(N)=O)c1c(Cl)cccc1Cl	CEM		IIIB	0.003 µg/mL
Cc1cc(=O)oc2cc(O)c(O)cc12	CEM		IIIB	2.7 µg/mL
Cc1cn(-c2ccccc2[N+](=O)[O-])c2ccccc12	C8166		IIIB	12.09 µg/mL
Cc1cn([C@@H]2O[C@H](CO[Si](C)(C)C(C)(C)C)C3(OS(=O)(=O)C=C3N)[C@H]2O[Si](C)(C)C(C)(C)C)c(=O)n(C)c1=O	CEM		IIIB	0.024 µg/mL
CN1C(=O)N(Cc2ccccc2)S(=O)(=O)c2cscc21	MT-4		RF	32.1 µM
CCCCCCCCCC(=O)NCC(COP(=O)([O-])OCC[N+](C)(C)C)OCCCCCCCC	CEM		IIIB	0.77 µM
OC[C@@H]1[C@@H](O)[C@H](O)[C@H]2[C@H](O)CCN21	JM		GB8	<500 µM
CCCCCCCCCCCC(=O)NCC(COP(=O)([O-])OCC[N+](C)(C)C)OCCCCCCCCCC	CEM		IIIB	0.15 µM
Cc1cn([C@H]2C[C@H](N=[N+]=[N-])[C@@H](CO)O2)c(=O)[nH]c1=O	MT-2		LAV-1	<0.3 µM